Compound potency records, mixed from different reports. Data source: NIAID ChemDB in PubChem.

Common to all: target-level tests

Lines come from different laboratories, so protocols vary.

{"SMILES": "O=C(O)c1cc(O)c(O)c(O)c1", "protein": "CD4", "read by": "flow cytometry", "endpoint": "inhibition", "tested at": "20 µg/mL", "result": "32%"}
{"SMILES": "COc1ccc(-c2cc(C(=O)Nc3ccc(S(=O)(=O)Nc4cc(C)nc(C)n4)cc3)c3ccccc3n2)cc1", "protein": "Cyclophilin A", "read by": "absorbance", "endpoint": "IC50", "result": "21.65 µM"}
{"SMILES": "CN1CC(C(=O)N(CCCN2CCC(Cc3ccccc3)CC2)c2ccccc2)CC1=O", "protein": "CCR5", "read by": "radiometric", "endpoint": "inhibition", "tested at": "1 µM", "result": "57%"}
{"SMILES": "Nc1nccc2c1ncn2[C@@H]1C[C@H](O)[C@@H](O)[C@H]1O", "protein": "S-adenosylhomocysteine hydrolase", "read by": "radiometric", "endpoint": "Ki", "result": "0.83 µM"}
{"SMILES": "O=C(c1ccccc1)N1C[C@@H](CN2CCC(c3ccccc3)CC2)[C@H](c2ccccc2)C1", "protein": "CCR3", "endpoint": "IC50", "result": "0.71 µM"}
{"SMILES": "Nc1nccc2c1ncn2[C@H]1CC[C@@H](CO)C1", "protein": "S-adenosylhomocysteine hydrolase", "read by": "radiometric", "endpoint": "Ki", "result": "50.5 µM"}
{"SMILES": "O=C(O)Cc1ccc(O)c(O)c1", "protein": "CD4", "read by": "flow cytometry", "endpoint": "IC50", "result": "2 µM"}
{"SMILES": "O=C(O)CS(=O)c1ccc2c3c(cccc13)C(=O)c1ccccc1-2", "protein": "VP40:TSG101", "endpoint": "IC50", "result": "11 µM"}
{"SMILES": "C=C1CN(S(=O)(=O)c2ccc(C)cc2)CCCN(C2CCCC2)CCCN(S(=O)(=O)c2ccc(C)cc2)C1", "protein": "CD4", "endpoint": "IC50", "result": "8.29 µM"}
{"SMILES": "O=S(=O)(c1cccc2cnccc12)N1CCNCC1", "protein": "Protein kinase C", "read by": "nucleotide incorporation", "endpoint": "inhibition", "tested at": "100 µg/mL", "result": "64.4 ± 8%"}
{"SMILES": "COc1ccc2c(Cc3c4ccccc4cc4ccccc34)cncc2c1O", "protein": "VP40:TSG101", "endpoint": "IC50", "result": "11.9 µM"}
{"SMILES": "O=C(/C=C/c1cc(Br)ccn1)/C=C/c1cc(Br)ccn1", "protein": "Nuclear factor-kappa B", "endpoint": "IC50", "result": "2.71 µM"}
{"SMILES": "COc1c(-c2ccccc2)c2ccccc2n(C)c1=O", "protein": "Tat:TAR/LTR", "endpoint": "IC50", "result": ">100 µM"}
{"SMILES": "C=CCN(C(=O)OCc1ccccc1)C1CCN(CCC(C)(c2ccccc2)C2Nc3ccccc3S(=O)(=O)N2)CC1", "protein": "CCR4", "endpoint": "IC50", "result": ">1 µM"}
{"SMILES": "O=C(Oc1cc(O)cc2c1C[C@@H](OC(=O)c1cc(O)c(O)c(O)c1)[C@@H](c1cc(O)c(O)c(O)c1)O2)c1cc(O)c(O)c(O)c1", "protein": "CXCR4", "read by": "ELISA", "endpoint": "inhibition", "tested at": "20 µM", "result": "1%"}
{"SMILES": "c1ccc(N2CCCCC2)c(NCc2ccc(CN3CCCNCCNCCCNCC3)cc2)c1", "protein": "CCR5", "read by": "fluorescence", "endpoint": "inhibition", "tested at": "10 µM", "result": "60%"}
{"SMILES": "O=C1CC(C(=O)N(CCCN2CCC(Cc3ccccc3)CC2)c2ccccc2)CN1Cc1ccccc1Cl", "protein": "CCR5", "read by": "radiometric", "endpoint": "inhibition", "tested at": "1 µM", "result": "91%"}
{"SMILES": "CCOc1ccccc1N(CC(=O)Nc1ccc(S(=O)(=O)Nc2cccc(C(F)(F)F)c2)cc1)S(C)(=O)=O", "protein": "Cyclophilin A", "read by": "absorbance", "endpoint": "IC50", "result": "14.45 µM"}
{"SMILES": "O=C(O[C@@H]1Cc2c(O)cc(O)cc2O[C@@H]1c1cc(O)c(O)c(O)c1-c1c([C@H]2Oc3cc(O)cc(O)c3C[C@H]2OC(=O)c2cc(O)c(O)c(O)c2)cc(O)c(O)c1O)c1cc(O)c(O)c(O)c1", "protein": "CXCR4", "read by": "ELISA", "endpoint": "IC50", "result": ">20 µM"}
{"SMILES": "O=C(O)c1ccc(O)c(O)c1", "protein": "CD4", "read by": "flow cytometry", "endpoint": "inhibition", "tested at": "20 µg/mL", "result": "56%"}
{"SMILES": "Cn1c2ccccc2c(=O)c2c(O)cccc21", "protein": "Protein kinase C", "read by": "nucleotide incorporation", "endpoint": "inhibition", "tested at": "0.8 µg/mL", "result": "18%"}
{"SMILES": "Cn1c2ccccc2c(=O)c2c(O)cccc21", "protein": "Protein kinase C", "read by": "nucleotide incorporation", "endpoint": "inhibition", "tested at": "4 µg/mL", "result": "51.7%"}
{"SMILES": "O=C1C=CC(=C(c2ccc(O)cc2)c2ccc(O)cc2)C=C1", "protein": "CD4", "read by": "flow cytometry", "endpoint": "inhibition", "tested at": "20 µg/mL", "result": "0%"}
{"SMILES": "Nc1nccc2c1ncn2[C@@H]1O[C@H](CO)[C@@H](O)[C@H]1O", "protein": "S-adenosylhomocysteine hydrolase", "read by": "radiometric", "endpoint": "Ki", "result": "3.9 µM"}
{"SMILES": "COc1cccc(/C=C/C(=O)/C=C/c2cccc(OC)n2)n1", "protein": "Nuclear factor-kappa B", "endpoint": "IC50", "result": "4.68 µM"}
{"SMILES": "CC(C)[C@H](NC(=O)[C@H](Cc1ccccc1)C[C@H](O)[C@H](Cc1ccccc1)NC(=O)OC(C)(C)C)C(=O)N[C@@H](Cc1ccccc1)C(=O)N1CCOCC1", "protein": "Cathepsin D", "endpoint": "IC50", "result": "0.004 µM"}
{"SMILES": "CN(C)CCCN1c2cc(O)c(O)cc2Sc2cc(O)c(Cl)cc21", "protein": "gp120", "endpoint": "IC50", "result": ">200 µg/mL"}
{"SMILES": "O=C(/C=C/c1ccccn1)/C=C/c1ccccn1", "protein": "Nuclear factor-kappa B", "endpoint": "IC50", "result": "0.52 µM"}
{"SMILES": "O=C(O)CCc1ccc(O)c(O)c1", "protein": "CD4", "read by": "flow cytometry", "endpoint": "inhibition", "tested at": "100 µg/mL", "result": "0%"}
{"SMILES": "O=C(Nc1cc(NC(=O)c2ccccc2)cc(-c2nc3ccccc3c(=O)o2)c1)c1ccccc1", "protein": "Cyclophilin A", "read by": "absorbance", "endpoint": "IC50", "result": "56.2 µM"}
{"SMILES": "C=C1CN(S(=O)(=O)c2ccc(C)cc2)CCCN(CC2CC2)CCCN(S(=O)(=O)c2ccc(C)cc2)C1", "protein": "CD4", "endpoint": "IC50", "result": "5.24 µM"}
{"SMILES": "c1cc2c(c(NCc3ccc(CN4CCCNCCNCCCNCC4)cc3)c1)CCCC2", "protein": "CCR5", "read by": "fluorescence", "endpoint": "inhibition", "tested at": "10 µM", "result": "56%"}
{"SMILES": "C=C1CN(S(=O)(=O)c2ccc(C)cc2)CCCN(CC(C)C)CCCN(S(=O)(=O)c2ccc(C)cc2)C1", "protein": "CD4", "endpoint": "IC50", "result": "10.3 µM"}
{"SMILES": "COc1cc(C)cc2c(-c3c(O)cc(O)c4c3C[C@H](C)N[C@H]4C)cc(-c3cc(-c4c(O)cc(O)c5c4C[C@H](C)N[C@H]5C)c4cc(C)cc(OC)c4c3O)c(O)c12", "protein": "Protein kinase C", "endpoint": "IC50", "result": "130 µM"}
{"SMILES": "CCCCCCCCC[C@H]1CC2CCC3C(C(=O)OCCCCCCCCCC4N=C(N)N5CCCC5=C4C(=O)OCCCCN=C(N)N)[C@@H](C)N=C(N1)N23", "protein": "Protein kinase C", "endpoint": "IC50", "result": "1.4 µM"}
{"SMILES": "Clc1cc(CN2CCCNCCNCCCNCC2)cc(Cl)n1", "mutations": "CXCR4-D171N", "protein": "CXCR4", "endpoint": "IC50", "result": "5.3 µM"}
{"SMILES": "O=c1cc(C(F)(F)F)c2ccc(O)cc2o1", "protein": "Tat:TAR/LTR", "endpoint": "IC50", "result": "20 µM"}
{"SMILES": "O=C(NCc1cccnc1)C(=O)N/N=C\\c1ccc(-c2cccc(Cl)c2)o1", "protein": "Cyclophilin A", "read by": "absorbance", "endpoint": "IC50", "result": "34.86 µM"}
{"SMILES": "Cc1c(-c2ccccc2)c(=O)oc2ccccc12", "protein": "Tat:TAR/LTR", "endpoint": "IC50", "result": ">100 µM"}
{"SMILES": "CC[C@H](C)[C@H](N)C(=O)N[C@@H](CC(N)=O)C(=O)N[C@@H](CC(N)=O)C(=O)N[C@H](C(=O)N1CCC[C@H]1C(=O)N[C@@H](Cc1c[nH]c2ccccc12)C(=O)N[C@@H](CO)C(=O)O)[C@@H](C)CC", "mutations": "[S375W]GP120", "protein": "gp120", "read by": "ELISA", "endpoint": "IC50", "result": ">200 µM"}
{"SMILES": "C=C1CN(S(=O)(=O)c2ccc(C)cc2)CCCN(CCC)CCCN(S(=O)(=O)c2ccc(C)cc2)C1", "protein": "CD4", "endpoint": "IC50", "result": "4.09 µM"}
{"SMILES": "O=C1CC(C(=O)N(CCCN2CCC(Cc3ccccc3)CC2)c2ccccc2)CN1c1ccccc1", "protein": "CCR5", "read by": "radiometric", "endpoint": "inhibition", "tested at": "1 µM", "result": "76%"}
{"SMILES": "C=C1CN(S(=O)(=O)c2ccc(C)cc2)CCCN(Cc2ccc[nH]2)CCCN(S(=O)(=O)c2ccc(C)cc2)C1", "protein": "CD4", "endpoint": "IC50", "result": "7.15 µM"}
{"SMILES": "O=C1c2ccccc2-[n+]2ccc3c([nH]c4ccccc43)c21", "protein": "p56lck tyrosine kinase", "read by": "ELISA", "endpoint": "inhibition", "tested at": "700 µM", "result": "90%"}
{"SMILES": "O=S(=O)(c1cccc2cnccc12)N1CCNCC1", "protein": "Protein kinase C", "read by": "nucleotide incorporation", "endpoint": "inhibition", "tested at": "0.8 µg/mL", "result": "13.8%"}
{"SMILES": "O=C(O)Cc1cc(O)ccc1O", "protein": "CD4", "read by": "flow cytometry", "endpoint": "IC50", "result": "2 µM"}
{"SMILES": "C[C@@H]1CN(C(=O)c2ccccc2)CCN1C(=O)C(=O)c1c[nH]c2ccccc12", "protein": "gp120", "read by": "radiometric", "endpoint": "IC50", "result": "~60 µM"}
{"SMILES": "C=C1CN(S(C)(=O)=O)CCCN(Cc2ccccc2)CCCN(S(C)(=O)=O)C1", "protein": "CD4", "endpoint": "IC50", "result": "107 µM"}
{"SMILES": "CC(C)C[C@H](NC(=O)C(NC(=O)[C@@H](N)C(C)C)c1cc(O)cc(O)c1)C(=O)N[C@H](Cc1ccccc1)C(=O)C(=O)N[C@H](C(=O)N[C@H](C(=O)N[C@@H](CC(=O)O)C(=O)O)C(C)C)C(C)C", "protein": "Cathepsin D", "endpoint": "IC50", "result": "8.6 µM"}

The last 4 rows once more:

| SMILES | mutations | protein | read by | endpoint | tested at | result |
|---|---|---|---|---|---|---|
| O=C(O)Cc1cc(O)ccc1O |  | CD4 | flow cytometry | IC50 |  | 2 µM |
| C[C@@H]1CN(C(=O)c2ccccc2)CCN1C(=O)C(=O)c1c[nH]c2ccccc12 |  | gp120 | radiometric | IC50 |  | ~60 µM |
| C=C1CN(S(C)(=O)=O)CCCN(Cc2ccccc2)CCCN(S(C)(=O)=O)C1 |  | CD4 |  | IC50 |  | 107 µM |
| CC(C)C[C@H](NC(=O)C(NC(=O)[C@@H](N)C(C)C)c1cc(O)cc(O)c1)C(=O)N[C@H](Cc1ccccc1)C(=O)C(=O)N[C@H](C(=O)N[C@H](C(=O)N[C@@H](CC(=O)O)C(=O)O)C(C)C)C(C)C |  | Cathepsin D |  | IC50 |  | 8.6 µM |

Percent inhibition refers to the dose given; in toxicity tests it is the harm to the cells. ICn: concentration for n% inhibition. Blank or dashed fields: not listed here.